Results: US20040126810A1, “Peptide substrate identified by type bont/b botulinus toxin and use thereof for assaying and/or detecting said toxin or corresponding inhibitors” (published 2004)

Molecular target: peptide substrate 2s (fragment 60-94 of synaptobrevin with PyA-Ser-Gln-pNF at the cleavage site) (…)

“light chain of botulinum toxin type B (BoNT/B) (from UniProt P10844) (enzyme)” gave a kinetic constants of cleavage of the substrate (fluorimetric assay) of 47 µM.
